Measured values taken from patent US20160024159A1, “Potent and selective inhibitors of Nav1.7” (published 2016).
Several values for one entry are separate records, joined by “and”; a condition that tells them apart may be missing. Identical values can stand only once.

Columns and labels:
Test in all cases: cell-based or functional assay
[1] = target: human voltage-gated sodium channel Nav1.3 (human) (UniProt Q9NY46)
[2] = target: human voltage-gated sodium channel Nav1.4 (human) (UniProt P35499)
[3] = target: human voltage-gated sodium channel Nav1.5 (human) (UniProt Q14524)
[4] = target: human voltage-gated sodium channel Nav1.7 (human) (UniProt Q15858)

| Substance | IC50 (IonWorks Quattro) [1] | IC50 (IonWorks Quattro) [2] | IC50 (IonWorks Quattro) [3] | IC50 (IonWorks Quattro) [4] | IC50, IonWorks Quattro electrophysiology [4] | further results |
| --- | --- | --- | --- | --- | --- | --- |
| [1-Nal17]JzTx-V(1-29) (peptide; modification not given) | 0.11 µM | 0.13 µM | 2.2 µM | 0.033 µM |  |  |
| [Lys28]JzTx-V(1-29) (peptide; modification not given) | 0.05 µM | 0.11 µM | 1.5 µM | 0.014 µM |  |  |
| [Ala20]JzTx-V(1-29) (peptide; modification not given) | 0.26 µM | 0.42 µM | > 5 µM | 0.009 µM |  |  |
| [Glu20;Atz(NPEG10)23]JzTx-V(1-29) (peptide; modification not given) |  |  |  |  | 5 µM | IC50, IonWorks Quattro electrophysiology [1]: > 5 µM; IC50, IonWorks Quattro electrophysiology [2]: > 5 µM; Nav1.4/Nav1.7 (ratio of IC50) [2]: 1 fold; IC50, IonWorks Quattro electrophysiology [3]: 19.2 µM |
| [Arg11]JzTx-V(1-29) (peptide; modification not given) | 0.03 µM | 0.09 µM | 0.86 µM | 0.007 µM |  |  |
| [Arg29]JzTx-V(1-29) (peptide; modification not given) | 1.3 µM | 1.1 µM | > 5 µM | 0.067 µM |  |  |
| [Ala7]JzTx-V(1-29) (peptide; modification not given) | 0.94 µM | 0.69 µM | > 5 µM | 0.15 µM |  |  |
| [Lys17]JzTx-V(1-29) (peptide; modification not given) | 0.03 µM | 0.05 µM | 0.89 µM | 0.01 µM |  |  |
| [Glu20;Tyr28;1-Nal29]JzTx-V(1-29) (peptide; modification not given) |  |  |  |  | 0.05 µM | IC50, IonWorks Quattro electrophysiology [1]: 2.1 µM; IC50, IonWorks Quattro electrophysiology [2]: 4.6 µM; Nav1.4/Nav1.7 (ratio of IC50) [2]: 91 fold; IC50, IonWorks Quattro electrophysiology [3]: 4.6 µM |
| [Glu20;Tyr28;Lys29]JzTx-V(1-29) (peptide; modification not given) |  |  |  |  | 0.45 µM and 0.63 µM |  |
| [1-Nal24]JzTx-V(1-29) (peptide) | 0.46 µM | 0.33 µM | > 5 µM | 0.075 µM |  |  |
| [Nle6;Atz(NPEG10)7]JzTx-V(1-29) (peptide; modification not given) |  |  |  |  | 4.6 µM |  |
| [1-Nal23]JzTx-V(1-29) (peptide; modification not given) | 0.17 µM | 0.17 µM | 1.5 µM | 0.05 µM |  |  |
| [Lys29]JzTx-V(1-29) (peptide; modification not given) | 2.4 µM | 1.3 µM | > 5 µM | 0.11 µM |  |  |
| [Arg17]JzTx-V(1-29) (peptide; modification not given) | 0.04 µM | 0.06 µM | 0.95 µM | 0.014 µM |  |  |
| [Glu20;Nle24;Tyr28]JzTx-V(1-29) (peptide; modification not given) |  |  |  |  | > 5 µM | IC50, IonWorks Quattro electrophysiology [1]: > 5 µM; IC50, IonWorks Quattro electrophysiology [2]: > 5 µM; IC50, IonWorks Quattro electrophysiology [3]: > 5 µM |
| [Arg23]JzTx-V(1-29) (peptide; modification not given) | 0.15 µM | 0.21 µM | 2.8 µM | 0.15 µM |  |  |
| [Ala11]JzTx-V(1-29) (peptide; modification not given) | 0.14 µM | 0.16 µM | 3.6 µM | 0.012 µM |  |  |
| [Nle6;Atz(NPEG10)29]JzTx-V(1-29) (peptide; modification not given) |  |  |  |  | 0.4 µM | IC50, IonWorks Quattro electrophysiology [1]: 3.9 µM; IC50, IonWorks Quattro electrophysiology [2]: 0.75 µM; Nav1.4/Nav1.7 (ratio of IC50) [2]: 2 fold; IC50, IonWorks Quattro electrophysiology [3]: > 7 µM |
| [Arg24]JzTx-V(1-29) (peptide; modification not given) | 4.8 µM | 2.5 µM | > 5 µM | 5 µM |  |  |
| [Lys8]JzTx-V(1-29) (peptide; modification not given) | 0.1 µM | 0.1 µM | 3.7 µM | 0.031 µM |  |  |
| [Arg4]JzTx-V(1-29) (peptide; modification not given) | 0.07 µM | 0.16 µM | 2 µM | 0.014 µM |  |  |
| [Ala23]JzTx-V(1-29) (peptide; modification not given) | 0.44 µM | 0.34 µM | > 5 µM | 0.3 µM |  |  |
| [Arg12]JzTx-V(1-29) (peptide; modification not given) | 0.05 µM | 0.15 µM | 2.5 µM | 0.008 µM |  |  |
| [Atz(NPEG10)5;Nle6]JzTx-V(1-29) (peptide; modification not given) |  |  |  |  | > 7 µM | IC50, IonWorks Quattro electrophysiology [1]: > 7 µM; IC50, IonWorks Quattro electrophysiology [2]: > 7 µM; IC50, IonWorks Quattro electrophysiology [3]: > 7 µM |

| Substance | IC50 (IonWorks Quattro) [1] | IC50 (IonWorks Quattro) [2] | IC50 (IonWorks Quattro) [3] | IC50 (IonWorks Quattro) [4] | IC50, IonWorks Quattro electrophysiology [4] | further results |
| --- | --- | --- | --- | --- | --- | --- |
| [1-Nal7]JzTx-V(1-29) (peptide; modification not given) | 0.1 µM | 0.12 µM | 3.6 µM | 0.013 µM |  | PX hNav1.4 Tonic IC50 [2]: 0.0009 µM; PX hNav1.5 Tonic IC50 [3]: 1.42 µM; PX hNav1.7 Tonic IC50 [4]: 0.0004 µM |
| [Nva20]JzTx-V(1-29) (peptide; modification not given) | > 5 µM | 3.1 µM | 10.4 µM | 0.17 µM |  |  |
| [Ala22]JzTx-V(1-29) (peptide; modification not given) | 0.52 µM | 0.41 µM | > 5 µM | 0.062 µM |  |  |
| [Glu1]JzTx-V(1-29) (peptide; modification not given) | 0.16 µM | 0.23 µM | > 5 µM | 0.018 µM |  |  |
| [Arg8]JzTx-V(1-29) (peptide; modification not given) | 0.05 µM | 0.14 µM | 1.7 µM | 0.018 µM |  |  |
| [Glu20;1-Nal24;Tyr28]JzTx-V(1-29) (peptide; modification not given) |  |  |  |  | 0.3 µM | IC50, IonWorks Quattro electrophysiology [1]: > 7 µM; IC50, IonWorks Quattro electrophysiology [2]: > 7 µM; IC50, IonWorks Quattro electrophysiology [3]: > 7 µM |
| [Arg7]JzTx-V(1-29) (peptide; modification not given) | 0.08 µM | 0.4 µM | > 5 µM | 0.053 µM |  |  |
| [Glu20,29;Tyr28]JzTx-V(1-29) (peptide; modification not given) |  |  |  |  | 4.7 µM | IC50, IonWorks Quattro electrophysiology [1]: > 5 µM; IC50, IonWorks Quattro electrophysiology [2]: > 5 µM; IC50, IonWorks Quattro electrophysiology [3]: > 5 µM |
| CyA-[Nle6; Glu28]JzTx-V(1-29) (peptide; modification not given) |  |  |  |  |  | PX hNav1.4 Tonic IC50 [2]: 0.72 µM; PX hNav1.7 Tonic IC50 [4]: 0.00702 µM |
| [Glu22]JzTx-V(1-29) (peptide; modification not given) |  |  |  |  |  | PX hNav1.4 Tonic IC50 [2]: 4.34 µM; PX hNav1.7 Tonic IC50 [4]: 0.929 µM |
| [Glu20;Trp29]JzTx-V(1-29) (peptide; modification not given) |  |  |  |  | 0.017 µM |  |
| [Nle6]JzTx-V(1-29) (peptide) |  |  |  |  |  | IC50, IonWorks Quattro electrophysiology [1]: > 5 µM; IC50, IonWorks Quattro electrophysiology [2]: > 5 µM; IC50, IonWorks Quattro electrophysiology [3]: > 5 µM |
| Glu-[ Nle6; Glu28]JzTx-V(1-29) (peptide; modification not given) |  |  |  |  |  | PX hNav1.4 Tonic IC50 [2]: 0.0992 µM; PX hNav1.5 Tonic IC50 [3]: 7.6 µM; PX hNav1.7 Tonic IC50 [4]: 0.000765 µM |
| [Glu26]JzTx-V(1-29) (peptide; modification not given) |  |  |  |  |  | PX hNav1.7 Tonic IC50 [4]: > 1 µM |
| [Glu3]JzTx-V(1-29) (peptide; modification not given) |  |  |  |  |  | PX hNav1.4 Tonic IC50 [2]: 0.453 µM; PX hNav1.7 Tonic IC50 [4]: 0.0587 µM |
| [Glu1;Tyr28]JzTx-V(1-29) (peptide; modification not given) |  |  |  |  | 0.046 µM | IC50, IonWorks Quattro electrophysiology [2]: 0.7 µM; Nav1.4/Nav1.7 (ratio of IC50) [2]: 16 fold; IC50, IonWorks Quattro electrophysiology [3]: > 5 µM |
| Lys-[Nle6; Glu28]JzTx-V(1-29) (peptide; modification not given) |  |  |  |  |  | PX hNav1.4 Tonic IC50 [2]: > 10 µM; PX hNav1.5 Tonic IC50 [3]: > 10 µM; PX hNav1.7 Tonic IC50 [4]: > 1 µM |
| CyA-[Lys1; Nle6; Glu28]JzTx-V(1-29) (peptide; modification not given) |  |  |  |  |  | PX hNav1.4 Tonic IC50 [2]: 0.682 µM; PX hNav1.7 Tonic IC50 [4]: 0.0054 µM |
| [Glu20;Tyr28;Cit29]JzTx-V(1-29) (peptide; modification not given) |  |  |  |  | 1.2 µM |  |
| [Glu27]JzTx-V(1-29) (peptide; modification not given) |  |  |  |  |  | PX hNav1.4 Tonic IC50 [2]: 0.324 µM; PX hNav1.7 Tonic IC50 [4]: 0.0123 µM |
| [Atz(NPEG10)1;Glu20]JzTx-V(1-29) (peptide; modification not given) |  |  |  |  | 0.18 µM | IC50, IonWorks Quattro electrophysiology [1]: > 5 µM; IC50, IonWorks Quattro electrophysiology [2]: > 5 µM |
| Pra-[Glu20;Trp29]JzTx-V(1-29) (peptide; modification not given) |  |  |  |  | 0.018 µM |  |
| [Glu20;Atz(NPEG10)28]JzTx-V(1-29) (peptide; modification not given) |  |  |  |  | 1.77 µM | Nav1.4/Nav1.7 (ratio of IC50) [2]: 3 fold; IC50, IonWorks Quattro electrophysiology [3]: 15.4 µM |
| [Glu12]JzTx-V(1-29) (peptide; modification not given) |  |  |  |  |  | PX hNav1.4 Tonic IC50 [2]: 0.0432 µM; PX hNav1.7 Tonic IC50 [4]: 0.000904 µM |
| [Glu5]JzTx-V(1-29) (peptide; modification not given) |  |  |  |  |  | PX hNav1.7 Tonic IC50 [4]: > 1 µM |
